This is a selection: effects in other tests are not listed, and their absence says nothing.
Legend:
[1] = test system: HepG2.2.15; test: Determination of cytotoxicity (MTT) in HepG2.2.15 cells; conditions: read-out: CC50(μM) in HepG2.2.15, 10th day from treatment with drug
[2] = test system: Hepatitis B Virus (HBV); test: Inhibition of hepatitis B virus replication in HepG2.2.15 cell culture, quantitative PCR; format: cell-based; conditions: read-out: EC50(μM) in HBV; HepG2.2.15 culture medium, 10 days after treatment with drug, PCR of HBV DNA
[3] = test system: HBV; test: Pharmacological test on HBV transgenic mouse (serum HBV DNA by PCR); format: in vivo, HBV transgenic mice (FVB strain); conditions: subcutaneous, 10 mg/kg/day for 9 days; effect = blood does not contain HBV DNA

Substance	CC50 [1] [µM]	EC50 [2] [µM]	Result: number of mice showing pharmacological effect/number of total mice [3]
{[1-({2-amino-[6-(4-methoxyphenyl)sulfanyl]-9H-purin-9-yl}methyl)-2-methylcyclopropyl]oxy}methylphosphonic acid	> 1000	> 5	–
{[1-({2-amino-[6-(4-methylphenyl)sulfanyl]-9H-purin-9-yl}methyl)-2-methylcyclopropyl]oxy}methylphosphonic acid	> 1000	> 0.1	–
{[1-({2-amino-[6-(4-nitrophenyl)sulfanyl]-9H-purin-9-yl}methyl)-2-methylcyclopropyl]oxy}methylphosphonic acid	> 1000	> 0.05	–
{[1-({2-amino-[6-(4-nitrophenyl)sulfanyl]-9H-purin-9-yl}methyl)cyclopropyl]oxy}methylphosphonic acid	> 1000	> 0.5	3/4

Source: patent US20040063668A1, “Novel acyclic nucleoside phosphonate derivatives, salts thereof and process for the preparation of the same” (priority 2001, published 2004)
